Patent publication US10154992B2, “Compounds and methods for treating HIV infection” (THE REGENTS OF THE UNIVERSITY OF CALIFORNIA, priority 2016, dated 2018)

Tests used:
[1] = tested on: HIV-1 provirus in U1 cells; test: U1 activation (latency) assay, p24 ELISA; assay type: cell-based; settings: for pIC50: read-out: U1 cell IC50
Rev-RRE IIB interaction = Rev-RRE IIB interaction (Human immunodeficiency virus type 1 group M subtype B, UniProt P04608+P04618); settings: for pEC50: read-out: Tat-hybrid EC50
HIV-1 isolate NL4-3 = test: Virus spreading / replication assay in Jurkat cells, p24 ELISA; assay type: cell-based; settings: read-out: Jurkat HIV-1 replication assay, Table 2

Compound | pIC50 ([1]; Table 1) | pEC50 (Rev-RRE IIB interaction; Table 1) | pIC50 ([1]; Table 2) | pEC50 (Rev-RRE IIB interaction; Table 2) | further results
Cc1cc(C)c2c(N)c(C(N)=O)sc2n1 | < 6.30 | < 6.30 |  |  | 
CN(C)c1ccc(-c2cncc3sc(C(N)=O)c(N)c23)cc1 |  |  | > 7.00 | 6.30 to 7.00 | 
NC(=O)c1sc2cncc(-c3cccc(-c4ccccc4)c3)c2c1N |  |  |  | < 6.30 | 
NC(=O)c1cc2c(-c3ccc4ccccc4c3)cncc2s1 |  |  | > 7.00 | > 7.00 | pIC50 (HIV-1 isolate NL4-3): > 7.00
CC(=O)c1sc2nc(C)cc(C)c2c1N |  | < 6.30 |  |  | 
Cc1cc(C)c2c(N)c(C(=O)O)sc2n1 |  | < 6.30 |  |  | 
NC(=O)c1cc2c(-c3cnc4ccccc4c3)cncc2s1 |  |  | > 7.00 | > 7.00 | pIC50 (HIV-1 isolate NL4-3): > 7.00
NC(=O)c1cc2c(-c3ccc(Oc4ccccc4)cc3)cncc2s1 |  |  | > 7.00 | 6.30 to 7.00 | 
COCc1cc(C)nc2sc(C(N)=O)c(N)c12 | < 6.30 | < 6.30 |  |  | 
CN(C)c1cncc2sc(C(N)=O)c(N)c12 | 6.30 to 7.00 | < 6.30 |  |  | potency in the U1 assay [1]: sub-μM potency; activity in the Tat-hybrid reporter assay (Rev-RRE IIB interaction): sub-μM potency
CCc1c(C)nc2sc(C(N)=O)c(N)c2c1C | < 6.30 | < 6.30 |  |  | 

pEC50, pIC50: −log10 of the molar value. Read-outs that look alike come from different tables or passages of the source.
